From patent US10189878B2, “Ebolavirus pre-hairpin intermediate mimics and methods of use” (priority 2014, dated 2019) come the findings set out here.

One test addresses eboIZN39IQ (Zaire ebolavirus, UniProt Q05320). Description: SPR binding of ebolavirus C-peptides to N-trimer mimic eboIZN39IQ (ProteOn XPR36). Conditions: SPR kinetic fit, pH 5.8, RT.
The next test deals with D-eboIZN39IQ(D3) (Zaire ebolavirus, UniProt Q05320, A568D/A575D/A589D). The settings on record: SPR Biacore 3000.

In the case of `CC[C@H](C)[C@H](NC(=O)[C@H](C)NC(=O)[C@H](CS)NC(=O)[C@H](CC(=O)O)NC(=O)[C@@H]1CCCN1C(=O)CNC(=O)[C@H](CC(C)C)NC(=O)[C@@H](NC(=O)[C@H](Cc1c[nH]cn1)NC(=O)[C@H](CS)NC(=O)[C@@H](NC(=O)CNC(=O)CNC(=O)[C@H](Cc1c[nH]c2ccccc12)NC(C)=O)[C@@H](C)O)[C@@H](C)CC)C(=O)N[C@@H](CCC(=O)O)C(=O)N1CCC[C@H]1C(=O)N[C@@H](Cc1c[nH]cn1)C(=O)N[C@@H](CC(=O)O)C(=O)N[C@@H](Cc1c[nH]c2ccccc12)C(=O)N[C@H](C(=O)N[C@@H](CCCCN)C(=O)N[C@@H](CC(N)=O)C(=O)N[C@H](C(=O)N[C@H](C(=O)N[C@@H](CC(=O)O)C(=O)N[C@@H](CCCCN)C(=O)N[C@H](C(=O)N[C@@H](CC(=O)O)C(=O)N[C@@H](CCC(N)=O)C(=O)N[C@H](C(=O)N[C@H](C(=O)N[C@@H](Cc1c[nH]cn1)C(=O)N[C@@H](CC(=O)O)C(=O)N[C@@H](Cc1ccccc1)C(=O)N[C@H](C(=O)N[C@@H](CC(=O)O)C(=O)N[C@@H](CCCCN)C(N)=O)C(C)C)[C@@H](C)CC)[C@@H](C)CC)[C@@H](C)CC)[C@@H](C)O)[C@@H](C)CC)[C@@H](C)O`, the “kd for binding to eboIZN39IQ” value on eboIZN39IQ was 0.014 s⁻¹. As to `CC[C@@H](C)[C@@H](NC(=O)[C@@H](C)NC(=O)[C@@H](CS)NC(=O)[C@@H](CC(=O)O)NC(=O)[C@H]1CCCN1C(=O)CNC(=O)[C@@H](CC(C)C)NC(=O)[C@H](NC(=O)[C@@H](Cc1c[nH]cn1)NC(=O)[C@@H](CS)NC(=O)[C@H](NC(=O)CNC(=O)CNC(=O)[C@@H](Cc1c[nH]c2ccccc12)NC(C)=O)[C@H](C)O)[C@H](C)CC)C(=O)N[C@H](CCC(=O)O)C(=O)N1CCC[C@@H]1C(=O)N[C@H](Cc1c[nH]cn1)C(=O)N[C@H](CC(=O)O)C(=O)N[C@H](Cc1c[nH]c2ccccc12)C(=O)N[C@@H](C(=O)N[C@H](CCCCN)C(=O)N[C@H](CC(N)=O)C(=O)N[C@@H](C(=O)N[C@@H](C(=O)N[C@H](CC(=O)O)C(=O)N[C@H](CCCCN)C(=O)N[C@@H](C(=O)N[C@H](CC(=O)O)C(=O)N[C@H](CCC(N)=O)C(=O)N[C@@H](C(=O)N[C@@H](C(=O)N[C@H](Cc1c[nH]cn1)C(=O)N[C@H](CC(=O)O)C(=O)N[C@H](Cc1ccccc1)C(=O)N[C@@H](C(=O)N[C@H](CC(=O)O)C(=O)N[C@H](CCCCN)C(N)=O)C(C)C)[C@H](C)CC)[C@H](C)CC)[C@H](C)CC)[C@H](C)O)[C@H](C)CC)[C@H](C)O`, the “Binding to D-eboIZN39IQ(D3)” value on D-eboIZN39IQ(D3) is “No binding”.
